# Test results: US6355610B2 (priority 1998, dated 2002)
# Molecular target: hamster PrP conversion reaction (PrPsen to PrPres) (Mesocricetus auratus, UniProt P04273)
# Assay: Cell-free conversion assay (hamster 35S-PrPsen + HaPrPres, PK digestion, SDS-PAGE phosphor imaging)
# Format: biochemical, Syrian golden hamster
# Settings: for inhibition of the conversion reaction (in words): hamster PrP, peptide concentrations up to 0.8 mM
SMILES,IC50,inhibition of the conversion reaction (in words)
CC(C)C[C@H](NC(=O)CNC(=O)CNC(=O)[C@@H](NC(=O)[C@@H](NC(=O)[C@H](C)NC(=O)CN)C(C)C)C(C)C)C(=O)NCC(=O)NCC(=O)N[C@@H](Cc1ccc(O)cc1)C(=O)O,550 µM,able to inhibit the formation of PrPres
CSCC[C@H](NC(=O)[C@H](C)NC(=O)[C@H](CO)NC(=O)CNC(=O)[C@H](CC(C)C)NC(=O)[C@H](CCSC)NC(=O)[C@H](Cc1ccc(O)cc1)NC(=O)CNC(=O)CNC(=O)[C@H](CC(C)C)NC(=O)CNC(=O)CNC(=O)[C@@H](NC(=O)[C@@H](NC(=O)[C@H](C)NC(=O)CNC(=O)[C@H](C)NC(=O)[C@H](C)NC(=O)[C@H](C)NC(=O)[C@H](C)N)C(C)C)C(C)C)C(=O)N[C@@H](CO)C(=O)N[C@@H](CCCNC(=N)N)C(=O)N1CCC[C@H]1C(=O)N[C@@H](CCSC)C(=O)N[C@@H](CCSC)C(=O)N[C@@H](Cc1c[nH]cn1)C(=O)N[C@@H](Cc1ccccc1)C(=O)O,40 µM,
CSCC[C@H](NC(=O)[C@H](C)NC(=O)[C@H](CO)NC(=O)CNC(=O)[C@H](CC(C)C)NC(=O)[C@H](CCSC)NC(=O)[C@H](Cc1ccc(O)cc1)NC(=O)CNC(=O)CNC(=O)[C@H](CC(C)C)NC(=O)CNC(=O)CNC(=O)[C@@H](NC(=O)[C@@H](NC(=O)[C@H](C)NC(=O)CNC(=O)[C@H](C)NC(=O)[C@H](C)N)C(C)C)C(C)C)C(=O)N[C@@H](CO)C(=O)N[C@@H](CCCNC(=N)N)C(=O)N1CCC[C@H]1C(=O)N[C@@H](CCSC)C(=O)N[C@@H](CCSC)C(=O)N[C@@H](Cc1c[nH]cn1)C(=O)N[C@@H](Cc1ccccc1)C(=O)O,80 µM,
CSCC[C@H](NC(=O)[C@H](C)NC(=O)[C@H](CO)NC(=O)CNC(=O)[C@H](CC(C)C)NC(=O)[C@H](CCSC)NC(=O)[C@H](Cc1ccc(O)cc1)NC(=O)CNC(=O)CNC(=O)[C@H](CC(C)C)NC(=O)CNC(=O)CNC(=O)[C@@H](NC(=O)[C@@H](NC(=O)[C@H](C)NC(=O)CN)C(C)C)C(C)C)C(=O)N[C@@H](CO)C(=O)N[C@@H](CCCNC(=N)N)C(=O)N1CCC[C@H]1C(=O)N[C@@H](CCSC)C(=O)N[C@@H](CCSC)C(=O)N[C@@H](Cc1c[nH]cn1)C(=O)N[C@@H](Cc1ccccc1)C(=O)O,120 µM,nearly as effective as P113-141
